The values that follow come from article PMC11109247 (2024).

In assay [1] the target is T1, recombinant NiVMY G ectodomain (residues 71-602, Strep-tag) (Nipah virus Malaysia (NiVMY), UniProt Q9IH62 71-602).
T1 chain: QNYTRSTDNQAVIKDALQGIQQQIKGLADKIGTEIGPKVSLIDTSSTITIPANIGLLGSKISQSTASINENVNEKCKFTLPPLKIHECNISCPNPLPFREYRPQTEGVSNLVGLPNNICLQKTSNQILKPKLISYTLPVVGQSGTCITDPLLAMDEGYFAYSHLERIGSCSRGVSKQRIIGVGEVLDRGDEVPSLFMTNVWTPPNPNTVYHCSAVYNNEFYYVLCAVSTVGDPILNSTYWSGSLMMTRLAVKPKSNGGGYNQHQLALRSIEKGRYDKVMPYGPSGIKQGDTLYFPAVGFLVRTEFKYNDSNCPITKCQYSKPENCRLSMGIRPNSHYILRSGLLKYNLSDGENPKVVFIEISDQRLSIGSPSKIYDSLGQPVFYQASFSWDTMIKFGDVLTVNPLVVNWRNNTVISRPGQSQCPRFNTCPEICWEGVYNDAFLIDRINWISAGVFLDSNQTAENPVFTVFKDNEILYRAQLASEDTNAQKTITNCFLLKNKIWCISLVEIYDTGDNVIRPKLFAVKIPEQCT
Briefly: competition with ephrin-B2-Fc.

Assay [2] concerns the target T2, recombinant HeV G ectodomain (residues 71-604) (Hendra virus (HeV), UniProt O89343 71-604).
T2 chain: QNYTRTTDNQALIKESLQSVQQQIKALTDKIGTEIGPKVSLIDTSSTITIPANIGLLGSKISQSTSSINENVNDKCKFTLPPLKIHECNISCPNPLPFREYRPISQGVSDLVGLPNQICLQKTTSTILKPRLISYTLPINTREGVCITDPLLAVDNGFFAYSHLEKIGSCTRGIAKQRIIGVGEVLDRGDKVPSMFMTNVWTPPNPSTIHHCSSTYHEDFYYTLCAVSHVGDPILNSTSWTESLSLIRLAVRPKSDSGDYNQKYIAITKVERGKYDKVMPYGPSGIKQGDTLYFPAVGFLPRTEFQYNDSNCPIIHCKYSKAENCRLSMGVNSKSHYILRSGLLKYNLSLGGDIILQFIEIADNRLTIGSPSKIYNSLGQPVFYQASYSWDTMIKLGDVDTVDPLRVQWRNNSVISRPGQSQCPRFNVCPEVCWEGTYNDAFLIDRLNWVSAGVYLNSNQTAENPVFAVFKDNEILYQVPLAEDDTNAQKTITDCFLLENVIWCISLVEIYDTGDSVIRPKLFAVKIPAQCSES
The assay can be described thus: competition with ephrin-B2-Fc.

Assay [3] deals with T1, recombinant NiVMY G ectodomain …. Briefly: competition with ephrin-B3-Fc.
Assay [4] deals with T2, recombinant HeV G ectodomain (residues …). Briefly: competition with ephrin-B3-Fc.

B1: 1E5 (chimeric macaque-human IgG1 antibody) (antibody, V domains shown)
VH: QVQLQESGPGVVKPSETLSLTCAVSGGSISDTYRWSWIRQPPGKGLEWIGYIYGSATSTYYNPSLSSRVTISKDMSKNQFSLNLNSVTAADTAVYYCARDYQYYYSGSYPTPHNWFDVWGPGVLVTVSS
VL: DIQMTQSPSSLSASVGDRVTITCRASQGIIDYLSWYQQKPGKAPKLLISTASNLESGVPSRFSGSGSGTEFTLTISSLQPEDFATYSCLQGYTTPYTFGQGTKVEIK
For the molecule B1, the IC50 in assay [1] was 0.11 µg/mL; in assay [2] it was 1.01 µg/mL; in assay [3], 0.06 µg/mL; in assay [4] it was 0.16 µg/mL.
